Measured values from several laboratories, pooled; numbers as filed in NIAID ChemDB.

Shared fields: target-level tests; species: Hepatitis C virus; protein: Nonstructural protein 5B

Inhibition is in % at the dose shown (toxicity tests: loss of growth or viability).

compound,measure,dose,value
CNC(=O)c1c(-c2ccc(F)c(F)c2)oc2ccc(OC)cc12,IC50,-,≤0.5 µM
Cc1cc(SC2=C(O)CC(CCc3ccc(O)cc3)(C3CCCCC3)OC2=O)c(C(C)(C)C)cc1N,IC50,-,1–10 µM
COc1nc(Nc2ccc3cn[nH]c3c2)nc(N2CCC(O)CC2)n1,inhibition,1 µg/mL,32%
CNC(=O)c1c(-c2ccc(F)cc2)oc2cc(N(C)S(C)(=O)=O)c(OCc3cccc(OC)c3)cc12,IC50,-,≤0.5 µM
O=C(c1ccc(S(=O)(=O)Nc2ccc(N3CCOCC3)cc2)cc1)N(Cc1ccccn1)Cc1ccccn1,inhibition,1 µg/mL,68%
COc1nc(Nc2ccc3cn[nH]c3c2)nc(N2CCN(CCO)CC2)n1,inhibition,10 µg/mL,83%
O=C1CC(=O)OC(CCc2ccc(Cl)c(Cl)c2)(C2CCCC2)C1,IC50,-,1–10 µM
CCOc1ccc2oc(-c3ccc(Cl)s3)c(C(=O)NC)c2c1,IC50,-,≤0.5 µM
COc1nc(NCCO)nc(Nc2ccc3cn[nH]c3c2)n1,inhibition,1 µg/mL,55%
COc1cc(OC)c(CCC2(C3CCCC3)CC(O)=C(Sc3ccc(C(=O)O)cn3)C(=O)O2)cc1Cl,IC50,-,<1 µM
CNC(=O)c1c(-c2ccc(F)cc2)oc2cc(C3CNC(=O)O3)c(OC)cc12,IC50,-,≤0.5 µM
CCOc1c(F)cc(CCC2(C3CCCC3)CC(=O)CC(=O)O2)cc1F,IC50,-,1–10 µM
CN(C)C(=O)c1ccc(S(=O)(=O)Nc2ccc(N3CCOCC3)cc2)cc1,inhibition,10 µg/mL,92%
CNC(=O)c1c(-c2ccc(F)cc2)oc2cc(N3CCCC3)c(OC(C)C)cc12,IC50,-,≤0.5 µM
CNC(=O)C1CCN(c2nc(Nc3ccc4[nH]ncc4c3)nc(OC)n2)CC1,inhibition,1 µg/mL,33%
O=C(NCCN1CCOCC1)c1ccc(S(=O)(=O)Nc2ccc(N3CCOCC3)cc2)cc1,inhibition,0.01 µg/mL,15%
C=CCOCCC1(C2CCCC2)CC(O)=C(Sc2nc3nc(C)cc(C)n3n2)C(=O)O1,IC50,-,10–50 µM
COc1nc(NCCO)nc(Nc2ccc3[nH]ncc3c2)n1,inhibition,1 µg/mL,37%
COc1ccc(CCC2(C3CCCC3)CC(=O)C(Oc3ccc(Cl)cc3)C(=O)O2)cc1OC,IC50,-,10–50 µM
COc1nc(Nc2ccc3[nH]ncc3c2)nc(NC2CC2)n1,inhibition,0.1 µg/mL,12%
O=C(NCCc1cccnc1)c1ccc(S(=O)(=O)Nc2ccc(N3CCOCC3)cc2)cc1,inhibition,10 µg/mL,92%
COc1nc(Nc2ccc3cn[nH]c3c2)nc(NC2CC2)n1,inhibition,10 µg/mL,83%
CN(C)S(=O)(=O)c1ccc(CCC2(C3CCCC3)CC(=O)CC(=O)O2)cc1,IC50,-,10–50 µM

Repeating the final 2 entries:

compound	measure	dose	value
COc1nc(Nc2ccc3cn[nH]c3c2)nc(NC2CC2)n1	inhibition	10 µg/mL	83%
CN(C)S(=O)(=O)c1ccc(CCC2(C3CCCC3)CC(=O)CC(=O)O2)cc1	IC50	-	10–50 µM

Conditions beyond the fields shown may differ between rows. ICn is the concentration giving n% inhibition. An empty or dashed field is not shown. Two numbers with a dash give a range or band.